Measurements reported in patent publication US7192606B2, “Drugs for treating viral infections” (priority 2004, dated 2007).

Assays:
[1] = test system: vaccinia virus; assay type: cell-based
[2] = test system: cowpox virus; assay type: cell-based

Compound	SI (Selectivity Index, CC50/EC50) [1]	SI (Selectivity Index, CC50/EC50) [2]
O=S(=O)(NC12CC3CC(CC(C3)C1)C2)NS(=O)(=O)NC12CC3CC(CC(C3)C1)C2 [Example 1, N,N^1-Bis(tricyclo[3.3.1.1^3,7]dec-1-yl)imidodisulfamide]	SI: 1,556	SI: 77.8
Sodium N,N^1-(Tricyclo[3.3.1.1^3,7]dec-1-yl)imidodisulfamide [Example 11]	SI: 1,625	SI: 130
